Target: mouse synaptosomes (synaptosome preparation carrying the BoNT/A acceptor complex)

active botulinum neurotoxin type A (BoNT/A) (from UniProt P0DPI1 2-1296)
percent binding inhibition: > 20
